From PMC6253839, “Screening of Agelasine D and Analogs for Inhibitory Activity against Pathogenic Protozoa; Identification of Hits for Visceral Leishmaniasis and Chagas Disease” (Molecules, 2009)
Where “and” joins values, the source holds several entries; their conditions need not be identical. Equal entries are not always repeated.

Columns and labels:
[1] = test system: T. b. brucei Squib-427 strain (suramin-sensitive); assay: Antitrypanosomal activity, T. b. brucei trypomastigotes, resazurin; details: SI = IC50(fibroblast)/IC50(parasite); TDR criterion >100
[2] = test system: T. cruzi Tulahuen CL2 strain (nifurtimox-sensitive); assay: Antitrypanosomal activity, T. cruzi on MRC-5 cells, β-galactosidase readout; type: cell-based, Trypanosoma cruzi; details: SI = IC50(fibroblast)/IC50(parasite); TDR criterion >50
Protocol: To determine in vitro anti-trypanosomal activity, 4×10^3 MRC-5 cells and 4×10^4 parasites were added to each well of test plate with compound. […] The color reaction was read at 540 nm and absorbance values were expressed as a percentage of the blank controls.

[3] = test system: P. falciparum GHA-strain (chloroquine-suceptible); assay: Antiplasmodial activity, Malstat method; type: cell-based, Plasmodium falciparum; details: SI = IC50(fibroblast)/IC50(parasite); TDR criterion >20
[4] = test system: Leishmania infantum amastigotes (MHOM/ET 67); assay: Antileishmanial activity, amastigotes in primary peritoneal mouse macrophages; type: cell-based; details: SI = IC50(fibroblast)/IC50(parasite); TDR criterion >20
Protocol: Leishmania infantum amastigotes (MHOM/ET 67) were collected from an infected donor hamster and used to infect primary peritoneal mouse macrophages. To determine in vitro antileishmanial activity, 3×10^4 macrophages were seeded in each well of a 96-well plate. After 48 h outgrowth, 5×10^4 amastigotes/well were added and incubated for 2 h at 37 °C. […] Parasite burdens were determined microscopically after Giemsa staining and expressed as a percentage of the blank controls without compound.

CC(C)=CCC/C(C)=C/CC/C(C)=C/CC/C(C)=C/Cn1cnc2c1c(=N)ncn2C [Compound 8]
T. b. brucei SI [1]: 3.7
T. cruzi SI [2]: 12

CC(C)=CCC/C(C)=C/CC/C(C)=C/CC/C(C)=C/C[n+]1cn(C)c2nc[n-]/c(=N\OC(C)(C)C)c21 [Compound 1f]
P. falciparum SI [3]: 1.0
T. b. brucei SI [1]: >2.2
T. cruzi SI [2]: >2.2
L. infantum SI [4]: <1

CC(C)=CCC/C(C)=C/CC/C(C)=C/CC/C(C)=C/Cn1cc[n+](C)c1 [Compound 5]
P. falciparum SI [3]: 7.8
T. b. brucei SI [1]: > 69
T. cruzi SI [2]: > 50 and >69
L. infantum SI [4]: >69

CC1=C(CC/C(C)=C/CC/C(C)=C/C[n+]2cn(C)c3nc[n-]/c(=N\OCc4ccccc4)c32)C(C)(C)CCC1 [Compound 1l]
P. falciparum SI [3]: <1
T. b. brucei SI [1]: >4.1
T. cruzi SI [2]: 3.8
L. infantum SI [4]: <1

CONc1ncnc2ncn(C/C=C(\C)CC/C=C(\C)CC/C=C(\C)CCC=C(C)C)c12 [Compound 4b]
P. falciparum SI [3]: <1
T. b. brucei SI [1]: 2.4
T. cruzi SI [2]: 7.5
L. infantum SI [4]: <1

C=C1CC[C@H]2C(C)(C)CCC[C@]2(C)[C@H]1CC/C(C)=C/C[n+]1cn(C)c2nc[n-]/c(=N\OC(C)(C)C)c21 [Compound 1o]
P. falciparum SI [3]: <1
T. b. brucei SI [1]: >3.8
T. cruzi SI [2]: >3.8
L. infantum SI [4]: <1

CO/N=c1\[n-]cnc2c1[n+](C/C=C(\C)CC/C=C(\C)CC/C=C(\C)CCC=C(C)C)cn2CCC#N [Compound 1g]
P. falciparum SI [3]: <1
T. b. brucei SI [1]: <1
T. cruzi SI [2]: <1
L. infantum SI [4]: <1

CC(C)=CCC/C(C)=C/CC/C(C)=C/CC/C(C)=C/Cn1cnc2c(N)ncnc21 [Compound 3f, 9-Geranylgeranyladenine]
P. falciparum SI [3]: <1
T. b. brucei SI [1]: 1.0
L. infantum SI [4]: <1

CC1=C(CC/C(C)=C/CC/C(C)=C/C[n+]2cn(C)c3nc[n-]/c(=N\OC(C)(C)C)c32)C(C)(C)CCC1 [Compound 1m]
P. falciparum SI [3]: <1
T. b. brucei SI [1]: >4
T. cruzi SI [2]: >4
L. infantum SI [4]: <1

CC(C)=CCC/C(C)=C/CC/C(C)=C/CC/C(C)=C/C[n+]1cn(CCC#N)c2nc[n-]/c(=N\OCc3ccccc3)c21 [Compound 1h]
P. falciparum SI [3]: <1
T. b. brucei SI [1]: 2.1
T. cruzi SI [2]: 1.2
L. infantum SI [4]: <1

CC(C)=CCC/C(C)=C\CC/C(C)=C/C[n+]1cn(C)c2nc[n-]/c(=N\OCc3ccccc3)c21 [Compound 1c]
P. falciparum SI [3]: <1
T. b. brucei SI [1]: >2.8
T. cruzi SI [2]: >2.8
L. infantum SI [4]: <1

CO/N=c1\[n-]cnc2c1[n+](C/C=C(\C)CCCC(C)CCCC(C)CCCC(C)C)cn2C (stereo not drawn) [Compound 1j]
P. falciparum SI [3]: <1
T. b. brucei SI [1]: 1.9
T. cruzi SI [2]: >1.9
L. infantum SI [4]: <1

CO/N=c1\[n-]cnc2c1[n+](C/C=C(\C)CC/C=C(\C)CCC=C(C)C)cn2C [Compound 1b]
P. falciparum SI [3]: <1
T. b. brucei SI [1]: 1.8
T. cruzi SI [2]: >3.6
L. infantum SI [4]: <1

CO/N=c1\[n-]cnc2c1[n+](C/C=C(\C)CC/C=C(\C)CC/C=C(\C)CCC=C(C)C)cn2C(c1ccccc1)c1ccccc1 [Compound 1i]
P. falciparum SI [3]: <1
T. b. brucei SI [1]: 3.2
T. cruzi SI [2]: <1
L. infantum SI [4]: <1

CC(C)=CCC/C(C)=C/CC/C(C)=C/CC/C(C)=C/Cn1cnc2ncnc(N)c21 [Compound 4a]
P. falciparum SI [3]: <1
T. b. brucei SI [1]: <1
T. cruzi SI [2]: 1.1
L. infantum SI [4]: <1

CC(C)=CCC/C(C)=C\CC/C(C)=C/C[n+]1cn(C)c2ncnc(N)c21 [Compound 2a]
P. falciparum SI [3]: >9.0
T. b. brucei SI [1]: >2
T. cruzi SI [2]: > 50 and >60

C=C1CC[C@H]2C(C)(C)CCC[C@]2(C)[C@H]1CC/C(C)=C/C[n+]1cn(C)c2nc[n-]/c(=N\OC)c21 [Compound 1n]
P. falciparum SI [3]: 16
T. b. brucei SI [1]: 15
T. cruzi SI [2]: 9.2
L. infantum SI [4]: 7.1

C=C1CC[C@@H]2C(C)(C)CCC[C@@]2(C)[C@@H]1CC/C(C)=C/Cn1c[n+](C)c2ncnc(N)c21 [Compound 2c, agelasine D]
P. falciparum SI [3]: 23
T. b. brucei SI [1]: 7.4
T. cruzi SI [2]: 1.5
L. infantum SI [4]: 4.5

C/C(=C\C[n+]1cn(C)c2ncnc(N)c21)CCCC(C)CCCC(C)CCCC(C)C (stereo not drawn) [Compound 2b]
P. falciparum SI [3]: <1
T. b. brucei SI [1]: 3.3
T. cruzi SI [2]: >6.3
L. infantum SI [4]: <1

CC1=C(CC/C(C)=C/CC/C(C)=C/Cn2cnc3c2C(=N)N(C)CN3C)C(C)(C)CCC1 [Compound 9]
T. b. brucei SI [1]: >2
T. cruzi SI [2]: >8.8

CC(C)=CCC/C(C)=C/CC/C(C)=C/CC/C(C)=C/C[n+]1cn(C)c2nc[n-]/c(=N\OCc3ccccc3)c21 [Compound 1e]
P. falciparum SI [3]: <1
T. b. brucei SI [1]: 11
T. cruzi SI [2]: 2.3
L. infantum SI [4]: <1

CC(C)=CCC/C(C)=C/CC/C(C)=C/CC/C(C)=C/Cn1c[n+](C)c2ccccc21 [Compound 6]
P. falciparum SI [3]: 2.0
T. b. brucei SI [1]: 11
T. cruzi SI [2]: >17

CC(C)=CCC/C(C)=C/CC/C(C)=C/CC/C(C)=C/Cn1cnc2ncnc(NOCc3ccccc3)c21 [Compound 4c]
P. falciparum SI [3]: <1
T. b. brucei SI [1]: <1
T. cruzi SI [2]: 1.0
L. infantum SI [4]: <1

CC(C)=CCC/C(C)=C/CC/C(C)=C/CC/C(C)=C/C[n+]1cnc2c(ncn2C)c1N [Compound 7]
P. falciparum SI [3]: 1.6
T. b. brucei SI [1]: 3.9
T. cruzi SI [2]: 1.5

CO/N=c1\[n-]cnc2c1[n+](C/C=C(\C)CC/C=C(\C)CC/C=C(\C)CCC=C(C)C)cn2C [Compound 1d]
P. falciparum SI [3]: 20
T. b. brucei SI [1]: 8.7
T. cruzi SI [2]: 18
L. infantum SI [4]: 22

CO/N=c1\[n-]cnc2c1[n+](C/C=C(\C)CCC=C(C)C)cn2C [Compound 1a]
P. falciparum SI [3]: 1.9
T. b. brucei SI [1]: <1
T. cruzi SI [2]: >11
L. infantum SI [4]: <1
